Compound potency records, mixed from different reports. Data source: NIAID ChemDB in PubChem.

All rows: tests in culture; agent: Hepatitis C virus; endpoint: inhibition

Inhibition is in % at the dose shown (toxicity tests: loss of growth or viability).

| smiles | read by | tested at | strain or isolate | cells | result |
|---|---|---|---|---|---|
| CCCC(NC(=O)[C@@H]1C2CC[C@@H](F)C2CN1C(=O)[C@@H](NC(=O)[C@@H](NC(=O)c1cnccn1)C(C)C)C(C)C)C(=O)C(=O)NC1CC1 | replicon | 25 µM | - | Huh7 | 84% |
| CCCCn1cnc2c(c(CC#N)nn2-c2ccccc2)c1=N | PCR | 50 µM | sg1b | Huh7-1 | <75% |
| O=c1c(O)c(-c2ccc(O)cc2)oc2cc(O)cc(O)c12 | PCR | 1 µM | G1 | Huh7 | 43% |
| Cc1cc(N2CCCCC2)nc2ccc(Cc3ccc4nc(N5CCCCC5)cc(C)c4c3)cc12 | PCR | 50 µM | sg1a (H77) | Huh7-1 | <75% |
| CCNC(=O)n1c(O)c(C2=NS(=O)(=O)c3cc(NS(C)(=O)=O)ccc32)c(=O)n1-c1ccccc1 | - | 10 µM | Genotype 4 | - | 70% |
| C[C@@]1(O)[C@H](O)[C@@H](CO)O[C@H]1n1cnc2c(N)ncnc21 | replicon / PCR | 0.5 µM | GT1b | Huh7 | 75% |
| O=c1cc(Sc2ccc(F)cc2Cl)c2cc(F)ccc2o1 | - | 10 µM | - | Ava5 | 34.5% |
| COc1cc2oc(=O)c(-c3ccc(O)cc3O)cc2c(OC)c1CC=C(C)C | microscopy / fluorescence | 15 µg/mL | 2a | Huh7.5 | 18.4% |
| O=C(NO)c1cc2ccccc2[nH]1 | luciferase / replicon | 10 µM | GT1b | Huh7 | 41% |
| CCCCCCCCCCCCCCCc1cccc(O)c1C(=O)O | luciferase | 1 µM | JFH-1 (gt 2a) | Huh7 | 10% |
| O=c1cc(Sc2ccccc2Cl)c2cc(F)ccc2o1 | - | 10 µM | - | Ava5 | 10.5% |
| CC(=N/O)/C(C)=N/O | PCR | 50 µM | sg1a (H77) | Huh7-1 | <75% |
| O=C1NC(=O)c2c1c1c3ccccc3[nH]c1c1[nH]c3ccccc3c21 | - | 1 µM | - | Huh7.5.1 | 78% |
| CC[C@H](C)C(=O)O[C@H]1C[C@@H](C)C=C2C=C[C@H](C)[C@H](CC[C@@H]3C[C@@H](O)CC(=O)O3)[C@H]21 | - | 10 µM | - | HUH7-K2040 | ~25% |
| Clc1ccc(Cn2c(CN3CCCC3)nc3ccccc32)cc1 | luciferase / replicon | 5 µM | 1b Con1 | Huh7 | 37.46% |
| Nc1ncnc2c1ncn2[C@@H]1O[C@H](CO)[C@@H](O)[C@H]1O | replicon | 50 µM | - | Huh7 | 85.8% |
| C[C@@]1(O)[C@H](O)[C@@H](CO)O[C@H]1c1c[nH]c2c(N)ncnc12 | MTT | 10 µg/mL | - | HepG2-T5B | 0% |
| CC(=O)OC1CCC2(C)C(CCC3C2CC(=O)C2(C)C3CC(N3CC3)C2C(C)=O)C1 | PCR | 50 µM | sg1b | Huh7-1 | <75% |
| C[C@@]1(O)[C@H](O)[C@@H](CO)O[C@H]1c1coc2c(N)ncnc12 | MTT | 2 µg/mL | - | HepG2-T5B | 6.15% |
| O=c1cc(Sc2ccccc2F)c2cc(F)ccc2o1 | - | 10 µM | - | Ava5 | 23% |
| COc1c(CC=C(C)C)c(O)cc2oc(=O)c(-c3ccc(O)cc3O)cc12 | microscopy / fluorescence | 20 µg/mL | 2a | Huh7.5 | 100% |
| Nc1ncnc2c1ncn2[C@H]1C[C@H](O)[C@@H](CO)O1 | replicon | 50 µM | - | Huh7 | 90.6% |
| CC(Cc1ccc(O)c(O)c1)C(C)Cc1ccc(O)c(O)c1 | - | 35 µM | BM45-Feo | Huh7 | 60% |
| Nc1ccn([C@H]2C[C@H](O)[C@@H](CO)O2)c(=O)n1 | replicon | 50 µM | - | Huh7 | 0% |
| CN(C)CCCn1cc(C2=C(c3c[nH]c4ccccc34)C(=O)NC2=O)c2ccccc21 | - | 1 µM | - | Huh7.5.1 | 40% |
| Nc1nc2c(ncn2[C@@H]2O[C@H](CO)[C@@H](O)[C@H]2O)c(=O)[nH]1 | replicon | 50 µM | - | Huh7 | 86.5% |
| NC(=O)c1ncn([C@@H]2O[C@H](CO)[C@@H](O)[C@H]2O)n1 | - | 100 µM | - | Ava5 | 89% |
| Brc1ccc(Cn2ccc3nc(-c4ccccc4)nc-3c2)cc1 | - | 80 µM | - | - | 50% |

An empty or dashed field is not shown. Neighbouring rows are from separate reports.